Percent effect of library compounds

Mtb glucose medium: 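Whole-cell growth test on Mycobacterium tuberculosis, read after 3 days in glucose-containing 7H9 medium; the read-out is not stated. Tested at 500 µM. Higher reads as more growth inhibition (inferred: compounds with an IC50 in retests scored well above the rest). About 18,000 compounds were tested under these conditions; 7.9% (about 1,400) showed 50% or more at least once.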
Mtb cholesterol medium: 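Phenotypic screen: M. tuberculosis growth, cholesterol and DPPC medium, 4 days; the read-out is not stated. Compounds at 500 µM. The record gives no direction; compounds that gave an IC50 in retests scored well above the rest, so higher reads as more growth inhibition. About 18,000 compounds were tested under these conditions; 5% (about 900) showed 50% or more at least once.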

Each number is a percent effect as filed. The record does not define 0% and 100%; most values in the screen are far below 50% and negative numbers occur (in some assays of this library far below -100). Many other results are left out here, so strong results are more common than in the screen. A dash means the value is not listed here; it may have been measured.

- CCNCc1nc(-c2ccccc2)no1 | Mtb glucose medium: 60.38%; Mtb cholesterol medium: 55.22%
- COc1ccc(NC(=O)C2=CCOCC2)cc1OC | Mtb glucose medium: 14.23%
- Nc1[nH]nc(C(=O)N2CC(N3CCCCC3)C2)c1Cl | Mtb glucose medium: -0.6228%
- Cn1cc(NC(=O)C2=Cc3ccccc3OC2)cn1 | Mtb glucose medium: 57.23%
- COC1(CN)CCC(C(F)F)CC1 (stereo not given) | Mtb glucose medium: 7.84%
- O=C(Nc1ccccc1I)C1COCCO1 (stereo not given) | Mtb glucose medium: 20.35%
- CC1CN(C(=O)c2cnsn2)c2cccc(Cl)c2O1 (stereo not given) | Mtb glucose medium: 54.33%; Mtb cholesterol medium: 0.218%
- COc1ccc(C2NCCNC2=O)cc1 (stereo not given) | Mtb glucose medium: -0.5437%
- CNCC1CCCN1S(=O)(=O)c1ccccc1 (stereo not given) | Mtb glucose medium: 8.643%
- CN(C)CCNC(=O)Cn1cc(NCC(C)(C)C)cn1 | Mtb glucose medium: 6.728%
- CS(=O)(=O)N1CCCC(N)C1 (stereo not given) | Mtb glucose medium: 1.223%
- COc1ccc(Cl)c(CSCC(O)CO)c1 (stereo not given) | Mtb glucose medium: 44.37%
- Cc1ccc(NC(=O)C(C)N2CCCN(C)CC2)cc1 (stereo not given) | Mtb glucose medium: 19.74%
- CCc1nc(CN(C)C(=O)c2cccnc2O)cs1 | Mtb cholesterol medium: 0.3997%
- CC1CCC(NC(=O)Cn2cnc(C#N)n2)CC1 (stereo not given) | Mtb glucose medium: 58.03%
- CCN(CC(N)=O)C(C)c1cccc(OC)c1 (stereo not given) | Mtb glucose medium: 17.76%
- O=S(=O)(c1ccco1)N1CCOCc2ccccc21 | Mtb glucose medium: 62.91%
- CC(C)C(=O)Nc1ccc(CN2CCN(C)CC2)cc1 | Mtb glucose medium: 15.28%
- COCCNCc1cc(Cl)ccc1OCC(N)=O | Mtb glucose medium: 14.09%
- Cc1cc(S(=O)(=O)N(C)Cc2nnc[nH]2)c(C)o1 | Mtb glucose medium: 21.78%
- COC(C)(C)C(=O)NCc1ccnc(NC2CC2)c1 | Mtb glucose medium: 7.01%
- Cc1cccc(C(=O)Nc2ncc(C)s2)n1 | Mtb glucose medium: -14.58%
- CSC(C)C(=O)N1CCOC(C)(C)C1 (stereo not given) | Mtb glucose medium: -4.561%
- CC(O)CN1CCN(C(=O)CN(C)S(C)(=O)=O)CC1 (stereo not given) | Mtb glucose medium: 2.363%
- CCn1ccc(C(=O)NCCc2noc(COC)n2)n1 | Mtb cholesterol medium: 6.831%
- COc1cccc(C(=O)NC2CCN(C)CC2)c1OC | Mtb glucose medium: 8.422%
- CC(C)(C)CC(CO)NC(=O)c1ccon1 (stereo not given) | Mtb glucose medium: 13.47%
- CN(C)C(C)(C)CNC(=O)NCCC1CCCCO1 (stereo not given) | Mtb glucose medium: 63.32%
- NS(=O)(=O)c1ccc(O)c(F)c1 | Mtb glucose medium: 7.147%; Mtb cholesterol medium: -0.1134%
- Cc1ccc2c(n1)OCCN2C(=O)c1cnn(C)c1C | Mtb cholesterol medium: 9.044%
- CCN1C[C@H](NC(=O)c2ccc(Cl)s2)[C@@H](OC)C1 | Mtb glucose medium: 66.77%; Mtb cholesterol medium: 51.35%
- CC(C)(CO)NC(=O)c1cccc(OCC(F)F)n1 | Mtb cholesterol medium: -9.038%
- CC(Cn1cncn1)NC(=O)Cc1c(F)cccc1Cl (stereo not given) | Mtb glucose medium: 2.035%
- CC(=O)Nc1nc(C(=O)Nc2nccs2)cs1 | Mtb glucose medium: 11.66%; Mtb cholesterol medium: -2.485%
- CCc1ccc(C(=O)NCCCN2CCCC2=O)s1 | Mtb glucose medium: -6.704%
- CN(C)CC1CCN(C(=O)c2ccc(O)c(Cl)c2)CC1 | Mtb cholesterol medium: -10.04%
- CNC(=O)Cc1ccc(-c2ccc(F)c(CO)c2)cc1 | Mtb cholesterol medium: -0.5293%
- CCN(CC)C(=O)Nc1cc(OC)c(OC)c(OC)c1 | Mtb glucose medium: 17.34%
- NCCn1cc(C(=O)N2CCCCCCC2)nn1 | Mtb glucose medium: 22.28%
- Nc1ncccc1C(=O)NC1CCCCC1 | Mtb glucose medium: 0.8156%

For reference, 4 entries once more:

| structure | Mtb glucose medium | Mtb cholesterol medium |
|---|---|---|
| `CN(C)C(C)(C)CNC(=O)NCCC1CCCCO1` (stereo not given) | 63.32 | - |
| `COC1(CN)CCC(C(F)F)CC1` (stereo not given) | 7.84 | - |
| `Nc1ncccc1C(=O)NC1CCCCC1` | 0.8156 | - |
| `CCNCc1nc(-c2ccccc2)no1` | 60.38 | 55.22 |

Source: ChEMBL document CHEMBL3988442, “University of Dundee, Small-Polar-MMV Screening Library” (2021).